Measured values from several laboratories, pooled; numbers as filed in NIAID ChemDB.

All rows: whole-cell or culture tests; agent: HIV-1; method: p24 / ELISA; read-out: EC50

An empty or dashed field is not shown.

smiles	strain or isolate	changes	cells	result
CCC1=C(C2=NC[C@H](C3CCCCC3)O2)[C@H](c2cccc(O)c2)NC(=O)N1	-	-	CEM	≤1 µM
CC(C)C1=C2[C@H]3CC[C@@H]4[C@@]5(C)CC[C@H](OC(=O)[C@H]6C[C@@H](C(=O)O)C6(C)C)C(C)(C)[C@@H]5CC[C@@]4(C)[C@]3(C)CC[C@@]2(CCNC(=O)c2ccc(C(F)(F)F)cc2)CC1=O	92HT599	-	MT-2	<1 µM
CCCCCCCCCCCCCCCCCCOCCOP(=O)(O)CO[C@H](CO)Cn1cnc2c(N)nc(N)nc21	LAI	-	PBMC	0.014 µM
Cc1cn([C@H]2C[C@H](N=[N+]=[N-])[C@@H](CO)O2)c(=O)[nH]c1=O	NL4-3	-	PBMC	0.05576 µM
CC1=C[C@H]2[C@@]3(O)[C@H](C)[C@@H](O)[C@]4(OC(=O)CCCC[C@@H]5SC[C@@H]6NC(=O)N[C@@H]65)[C@H]([C@@H]3C=C(CO)C[C@]2(O)C1=O)C4(C)C	IIIB	-	C8166	>200 µM
Cc1cn([C@H]2C[C@H](N=[N+]=[N-])[C@@H](CO)O2)c(=O)[nH]c1=O	1617-1	-	PBMC	3.508 µM
CCC1=C(CO)C(c2cccc(O)c2)NC(=O)N1	-	-	CEM	>5 µM
CC/C=C\C/C=C\C/C=C\C/C=C\C/C=C\CCCC(=O)OCC1=C[C@H]2[C@@H]3C(C)(C)[C@]3(OC(=O)CCC/C=C\C/C=C\C/C=C\C/C=C\C/C=C\CC)[C@H](OC(=O)CCC/C=C\C/C=C\C/C=C\C/C=C\C/C=C\CC)[C@@H](C)[C@]2(O)[C@@H]2C=C(C)C(=O)[C@@]2(O)C1	IIIB	-	C8166	41.74 µM
CC(C)C1=C2[C@H]3CC[C@@H]4[C@@]5(C)CC[C@H](OC(=O)[C@H]6C[C@@H](C(=O)O)C6(C)C)C(C)(C)[C@@H]5CC[C@@]4(C)[C@]3(C)CC[C@@]2(CCNC(=O)c2ccc(Cl)cc2OCCN2CCCC2)CC1=O	92HT599	-	MT-2	<1 µM
CC(=O)O[C@@]12[C@H](OC(=O)/C=C/c3ccc(F)cc3)[C@@H](C)[C@@]3(O)[C@@H](C=C(CO)C[C@]4(O)C(=O)C(C)=C[C@@H]34)[C@@H]1C2(C)C	IIIB	-	C8166	0.0264 µM
CC(C)C1=C2[C@H]3CC[C@@H]4[C@@]5(C)CC[C@H](OC(=O)[C@H]6C[C@@H](C(=O)O)C6(C)C)C(C)(C)[C@@H]5CC[C@@]4(C)[C@]3(C)CC[C@@]2([C@@H](O)CNCc2ncccn2)CC1=O	92HT599	-	MT-2	<1 µM
C/C=C/C(=O)O[C@@]12[C@H](O)[C@@H](C)[C@@]3(O)[C@@H](C=C(CO)C[C@]4(O)C(=O)C(C)=C[C@@H]34)[C@@H]1C2(C)C	IIIB	-	C8166	21.99 µM
Cc1cc(C)cc(Cc2c(I)c(=O)[nH]c(=O)n2COCc2ccccc2)c1	SF33	-	TZM-bl	0.002 µM
CCC1=C(C(O)c2ccccc2)C(c2cccc(OC)c2)NC(=O)N1	-	-	CEM	>5 µM
CCCCCCCCCCCCCCCCCCOCCOP(=O)(O)CO[C@H](CO)Cn1cnc2c(=O)[nH]c(N)nc21	NRTI-MDR	K65R	PBMC	0.022 µM
COc1ccc2[nH]c(=O)c(CN(Cc3cccnc3)S(=O)(=O)c3cccc4nsnc34)cc2c1	IIIB	-	U1	0.168 µM
CCC1=C(c2nc(C3CCCCC3)cs2)C(c2ccc(F)cc2)NC(=O)N1	-	-	CEM	≤1 µM
CC1=C[C@H]2[C@@]3(O)[C@H](C)[C@@H](OC(=O)CCCCC4SCC5NC(=O)NC54)[C@]4(O)[C@H]([C@@H]3C=C(CO)C[C@]2(O)C1=O)C4(C)C	IIIB	-	C8166	>200 µM
CCC1=C(C(=O)OCC2CCCCC2)C(c2ccc(OC(=O)c3cccnc3)c(Cl)c2)NC(=O)N1	-	-	CEM	≤1 µM
COc1cnc(-n2cnc(C)n2)c2[nH]cc(C(=O)C(=O)N3CCN(C(=O)c4ccccc4)CC3)c12	SF162.LS	-	PM1	0.0005 µM
CC(C)C1=C2[C@H]3CC[C@@H]4[C@@]5(C)CC[C@H](OC(=O)[C@H]6C[C@@H](C(=O)O)C6(C)C)C(C)(C)[C@@H]5CC[C@@]4(C)[C@]3(C)CC[C@@]2(CC(=O)NCCN2CCOCC2)CC1=O	92HT599	-	MT-2	<1 µM
CCC1=C(C(=O)c2ccc(OC)cc2)C(c2cccc(O)c2)NC(=O)N1	-	-	CEM	>5 µM
CC(=O)O[C@@]12[C@H](OC(=O)CCCCCBr)[C@@H](C)[C@@]3(O)[C@@H](C=C(CO)C[C@]4(O)C(=O)C(C)=C[C@@H]34)[C@@H]1C2(C)C	IIIB	-	C8166	>200 µM
CCC1=C(C(=O)OCC2CCCCC2)C(c2ccc(F)c([N+](=O)[O-])c2)NC(=O)N1	-	-	CEM	≤1 µM
CC1=C[C@H]2[C@@]3(O)[C@H](C)[C@@H](O)[C@]4(OC(=O)/C=C/c5ccccc5)[C@H]([C@@H]3C=C(CO)C[C@]2(O)C1=O)C4(C)C	IIIB	-	C8166	6.655 µM
CC(C)C1=C2[C@H]3CC[C@@H]4[C@@]5(C)CC[C@H](OC(=O)[C@H]6C[C@@H](C(=O)O)C6(C)C)C(C)(C)[C@@H]5CC[C@@]4(C)[C@]3(C)CC[C@@]2(CC(=O)NCC2(NC(=O)c3ccc(Cl)cc3)CC2)CC1=O	92HT599	-	MT-2	<1 µM
CCCCCCCCCCCCCCCCCCOCCOP(=O)(O)CO[C@H](CO)Cn1ccc(N)nc1=O	NRTI-MDR	K65R	PBMC	0.027 µM
CC(C)C1=C2[C@H]3CC[C@@H]4[C@@]5(C)CC[C@H](OC(=O)[C@H]6C[C@@H](C(=O)O)C6(C)C)C(C)(C)[C@@H]5CC[C@@]4(C)[C@]3(C)CC[C@@]2([C@@H](O)CNC(=O)C(C)(C)NC(=O)c2ccc(N3CCS(=O)(=O)CC3)cc2)CC1=O	92HT599	-	MT-2	<1 µM
CCCCCNc1ccc(C2NC(=O)NC(CC)=C2C(=O)OCC2CCCCC2)cc1	-	-	CEM	≤1 µM
COc1ccc(CNCC[C@@]23CC[C@]4(C)[C@H](CC[C@@H]5[C@@]6(C)CC[C@H](OC(=O)[C@H]7C[C@@H](C(=O)O)C7(C)C)C(C)(C)[C@@H]6CC[C@]54C)C2=C(C(C)C)C(=O)C3)cc1	92HT599	-	MT-2	<1 µM
O=C1NC(C2CC2)=C(C(=O)OCC2CCCCC2)C(c2cccc([N+](=O)[O-])c2)N1	-	-	CEM	>5 µM

For reference, 4 entries again:

smiles | strain or isolate | changes | cells | result
CCC1=C(CO)C(c2cccc(O)c2)NC(=O)N1 | - | - | CEM | >5 µM
COc1cnc(-n2cnc(C)n2)c2[nH]cc(C(=O)C(=O)N3CCN(C(=O)c4ccccc4)CC3)c12 | SF162.LS | - | PM1 | 0.0005 µM
CCC1=C(C(=O)OCC2CCCCC2)C(c2ccc(OC(=O)c3cccnc3)c(Cl)c2)NC(=O)N1 | - | - | CEM | ≤1 µM
Cc1cc(C)cc(Cc2c(I)c(=O)[nH]c(=O)n2COCc2ccccc2)c1 | SF33 | - | TZM-bl | 0.002 µM

ECn: concentration that inhibits the pathogen or its effect by n%. Neighbouring rows are from separate reports.